Compound potency records, mixed from different reports. Data source: NIAID ChemDB in PubChem.

All rows: host cell toxicity; cell line: C8166; measure: CC50

CCn is the concentration with n% toxicity to the cells. Rows are shuffled and stem from different studies.

Cc1cccc2c1cc1n2-c2ccccc2NC1(C)c1ccccc1 ; read by: MTT ; value: 37.96 µg/mL
CC/C=C\C/C=C\C/C=C\C/C=C\C/C=C\CCCC(=O)O[C@@]12[C@H](O)[C@@H](C)[C@@]3(O)[C@@H](C=C(CO)C[C@]4(O)C(=O)C(C)=C[C@@H]34)[C@@H]1C2(C)C ; read by: MTT ; value: 73 µM
C=C(C)[C@@]12OC3(C)O[C@@H]1[C@@H]1[C@H](O)[C@@](C)(O)[C@@H](O)[C@@]4(O)[C@@H](C=C(C)[C@@H]4OC(C)=O)[C@@]1(O3)[C@H](C)[C@@H]2OCc1ccccc1 ; read by: MTT ; value: 0.3024 µM
Nc1ccn([C@@H]2O[C@H](CO)C[C@@H]2F)c(=O)n1 ; value: >100 µM
C=C(C)[C@@]12OC3(C)O[C@@H]1[C@@H]1[C@H](O)[C@@](C)(O)[C@@H](OC(C)=O)[C@@]4(O)[C@@H](C=C(C)[C@@H]4O)[C@@]1(O3)[C@H](C)[C@@H]2OCc1ccccc1 ; read by: MTT ; value: 0.1381 µM
CCCOP(=O)(OCC(=O)OCC)OC[C@H]1O[C@@H](n2cc(C)c(=O)[nH]c2=O)C[C@@H]1N=[N+]=[N-] ; value: >100 µM
COC(=O)[C@H](C)NP(=O)(OC[C@H]1O[C@@H](n2cc(C)c(=O)[nH]c2=O)C[C@@H]1N=[N+]=[N-])OCC(Cl)(Cl)Cl ; value: >100 µM
CC(C)c1c(Cc2ccccc2)nc(SCC(=O)c2cccs2)[nH]c1=O ; read by: MTT ; value: 194 µM
Cc1cccc(Sc2c(C(=O)NCCO)[nH]c3ccc(Cl)cc23)c1 ; read by: MTT ; value: >100 µM
O=[N+]([O-])c1ccc(C2Nc3ccccc3-n3c2cc2ccccc23)cc1 ; read by: MTT ; value: 131 µg/mL
CC(C)c1c(Cc2ccccc2)nc(SCCc2ccccc2)[nH]c1=O ; read by: MTT ; value: >549 µM
CCCOP(=O)(N[C@H](C(=O)OC)C(C)C)OC[C@H]1O[C@@H](n2cc(C)c(=O)[nH]c2=O)C[C@@H]1N=[N+]=[N-] ; value: >100 µM
CC(=O)O[C@@]12[C@H](OC(=O)CCCCCCBr)[C@@H](C)[C@@]3(O)[C@@H](C=C(CO)C[C@]4(O)C(=O)C(C)=C[C@@H]34)[C@@H]1C2(C)C ; read by: MTT ; value: 73.6 µM
CC1(C)C=Cc2c(ccc3ccc(=O)oc23)O1 ; read by: MTT ; value: 329 µM
Cc1ccccc1S(=O)(=O)c1c(C(=O)NNCCO)[nH]c2ccc(Cl)cc12 ; read by: MTT ; value: >100 µM
Cc1cccc2c1cc1n2-c2ccccc2NC1c1ccc(N(C)C)cc1 ; read by: MTT ; value: 120 µg/mL
C=C(C)OCC12O[C@@]3([C@@H]1OC(C)=O)[C@@H](OC(C)=O)[C@@H](C)C[C@H]3[C@]1(O)[C@H]([C@@H](OC(C)=O)[C@](O)(C(=C)C)[C@@H](OCc3ccccc3)[C@H]1C)[C@@H]2OC(C)=O ; read by: MTT ; value: >0.24 µM
CCCCCCOP(=O)(N[C@H](C(=O)OC)C(C)C)OC[C@H]1O[C@@H](n2cc(C)c(=O)[nH]c2=O)C[C@@H]1N=[N+]=[N-] ; value: >100 µM
Nc1ccnc2c1ncn2[C@H]1CC[C@@H](CO)O1 ; value: >1000 µM
C=C(C)[C@@]12OC3(C)O[C@@H]1[C@@H]1[C@H](OC(=O)c4ccccc4)C4(C)O[C@@]5([C@@H]4OC(C)=O)[C@@H](OC(=O)c4ccccc4)[C@@H](C)C[C@H]5[C@@]1(O)[C@H](C)[C@@H]2O3 ; read by: MTT ; value: >200 µg/mL
CCc1c(Cc2ccccc2)nc(SCC(=O)c2ccco2)[nH]c1=O ; read by: MTT ; value: >564 µM
CC1(C)C=Cc2c(cc(O)c3c(=O)cc(-c4ccc(O)cc4)oc23)O1 ; read by: MTT ; value: 246.8 µM
Cc1ccccc1S(=O)(=O)c1c(C(=O)NCCO)[nH]c2ccc(Cl)cc12 ; read by: MTT ; value: >100 µM
C/C=C/C(=O)OCC1=C[C@H]2[C@@H]3C(C)(C)[C@]3(OC(=O)/C=C/C)[C@H](O)[C@@H](C)[C@]2(O)[C@@H]2C=C(C)C(=O)[C@@]2(O)C1 ; read by: MTT ; value: 144 µM
COc1ccc(C2Nc3ccccc3-n3c2cc2c(C)cccc23)cc1 ; read by: MTT ; value: 154 µg/mL
C[C@H]1[C@@H]2CC[C@@H]1[C@@H](OC(=O)c1ccccc1)/C=C/C=C/C(=O)O[C@H]1CC[C@@H]3[C@]1(O)[C@H](O)[C@@]1(CO)O[C@H]1[C@H]1[C@@H](O)[C@@](O)([C@H]4OC(C)(c5ccccc5)O[C@]13[C@@H]4C)[C@](C)(O)C2 ; read by: MTT ; value: 0.0152 µM
CCOP(=O)(N[C@@H](Cc1ccccc1)C(=O)OC)OC[C@H]1O[C@@H](n2cc(C)c(=O)[nH]c2=O)C[C@@H]1N=[N+]=[N-] ; value: >100 µM
Cc1cccc2c1cc1n2-c2ccccc2NC1c1ccccc1 ; read by: MTT ; value: 112 µg/mL
COc1cc(OC2O[C@H](COC3O[C@@H](C)[C@H](O)[C@@H](O)[C@H]3O)[C@@H](O)[C@H](O)[C@H]2O)c2c(C)c3c(=O)oc(C)cc3c(OC)c2c1 ; value: 100 µg/mL
Cc1cccc2c1cc1n2-c2ccccc2NC1c1ccc([N+](=O)[O-])cc1 ; read by: MTT ; value: >200 µg/mL
CC(C)c1c(Cc2cccc3ccccc23)nc(SCCc2ccccc2)[nH]c1=O ; read by: MTT ; value: >482 µM
CCCCCCCCC(=O)O[C@@H]1[C@@H](C)[C@@]2(O)[C@@H](C=C(CO)C[C@]3(O)C(=O)C(C)=C[C@@H]23)[C@@H]2C(C)(C)[C@]12OC(=O)CCCCC1SCC2NC(=O)NC21 ; read by: MTT ; value: 16.4 µM
C=C(C)[C@@]12OC3(C)O[C@@H]1[C@@H]1[C@H](OC(=O)c4ccccc4)C4(C)O[C@@]5([C@@H]4OC(=O)c4ccccc4)[C@@H](OC(C)=O)[C@@H](C)C[C@H]5[C@@]1(O)[C@H](C)[C@@H]2O3 ; read by: MTT ; value: >200 µg/mL
O=C(CN1CCCC1)Nc1ccc(Cc2ccc(NC(=O)CN3CCCC3)cc2)cc1 ; value: 73.11 µg/mL
CC(=O)NC1C(O)OC(COS(=O)(=O)O)C(OC2OC(C(=O)O)C(OC3OC(CO)C(OC4OC(C(=O)O)C(O)C(O)C4OS(=O)(=O)O)C(OS(=O)(=O)O)C3NS(=O)(=O)O)C(O)C2OS(=O)(=O)O)C1O ; read by: absorbance ; value: >300 µg/mL
CCc1c(Cc2cccc3ccccc23)nc(SCCc2ccccc2)[nH]c1=O ; read by: MTT ; value: 321 µM
COc1cc2c(c(OC)c1O)-c1c(cc(O)c(OC)c1OC)C[C@@H](C)[C@@H](C)C2 ; read by: MTT ; value: >200 µg/mL
Cc1c2n(c3ccccc13)-c1ccccc1NC2c1ccc([N+](=O)[O-])cc1 ; read by: MTT ; value: >200 µg/mL
Cc1ccc(Sc2c(C(=O)NNCCO)[nH]c3ccc(Cl)cc23)cc1 ; read by: MTT ; value: >100 µM
COC(=O)[C@H](C)NP(=O)(OC[C@H]1O[C@@H](n2cc(C)c(=O)[nH]c2=O)C[C@@H]1N=[N+]=[N-])Oc1ccccc1 ; value: >100 µM
COc1cc(C2Nc3ccccc3-n3c2cc2ccccc23)ccc1O ; read by: MTT ; value: 117 µg/mL
Cc1cccc(S(=O)(=O)c2c(C(=O)NCCO)[nH]c3ccc(Cl)cc23)c1 ; read by: MTT ; value: >100 µM
CCCOP(=O)(OC[C@H]1O[C@@H](n2cc(C)c(=O)[nH]c2=O)C[C@@H]1N=[N+]=[N-])OC(C)C(=O)OC ; value: >100 µM
Cc1ccccc1Sc1c(C(=O)NCCO)[nH]c2ccc(Cl)cc12 ; read by: MTT ; value: >100 µM
O=C1C=C(c2ccc(O)cc2)OC2C=C(O)C=C(O)C12 ; read by: MTT ; value: 378.2 µM
Cc1ccccc1Sc1c(C(=O)NNCCO)[nH]c2ccc(Cl)cc12 ; read by: MTT ; value: >100 µM
Cc1cc(C)cc(S(=O)(=O)c2c(C(N)=O)[nH]c3c(Cl)cc(Cl)cc23)c1 ; read by: MTT ; value: >200 µM
COCCCn1c(=O)nc(-c2ccc(N3CCN(C)CC3)nc2)c2oc3ccc(-c4cnn(C)c4)cc3c21 ; read by: MTT ; value: >15 µM
CCc1c(Cc2cccc3ccccc23)nc(SCC(=O)c2ccco2)[nH]c1=O ; read by: MTT ; value: 201 µM
OC[C@@H]1CC[C@H](n2cnc3c(NC4CCCC4)ccnc32)O1 ; value: 200 µM
CC1(C)C=Cc2cc3ccc(=O)oc3cc2O1 ; read by: MTT ; value: 732 µM
Cc1cn([C@H]2C[C@H](N=[N+]=[N-])[C@@H](CO)O2)c(=O)[nH]c1=O ; read by: MTT ; value: >200 µg/mL
Cc1cn([C@H]2C[C@H](N=[N+]=[N-])[C@@H](COP(=O)(N[C@@H](C)C(=O)OC3CCCCC3)OCC(Cl)(Cl)Cl)O2)c(=O)[nH]c1=O ; value: >100 µM
Nc1cc(Cl)nc2c1ncn2[C@H]1CC[C@@H](CO)O1 ; value: >1000 µM

Repeating the first 8 entries:

{"structure": "Cc1cccc2c1cc1n2-c2ccccc2NC1(C)c1ccccc1", "read by": "MTT", "value": "37.96 µg/mL"}
{"structure": "CC/C=C\\C/C=C\\C/C=C\\C/C=C\\C/C=C\\CCCC(=O)O[C@@]12[C@H](O)[C@@H](C)[C@@]3(O)[C@@H](C=C(CO)C[C@]4(O)C(=O)C(C)=C[C@@H]34)[C@@H]1C2(C)C", "read by": "MTT", "value": "73 µM"}
{"structure": "C=C(C)[C@@]12OC3(C)O[C@@H]1[C@@H]1[C@H](O)[C@@](C)(O)[C@@H](O)[C@@]4(O)[C@@H](C=C(C)[C@@H]4OC(C)=O)[C@@]1(O3)[C@H](C)[C@@H]2OCc1ccccc1", "read by": "MTT", "value": "0.3024 µM"}
{"structure": "Nc1ccn([C@@H]2O[C@H](CO)C[C@@H]2F)c(=O)n1", "value": ">100 µM"}
{"structure": "C=C(C)[C@@]12OC3(C)O[C@@H]1[C@@H]1[C@H](O)[C@@](C)(O)[C@@H](OC(C)=O)[C@@]4(O)[C@@H](C=C(C)[C@@H]4O)[C@@]1(O3)[C@H](C)[C@@H]2OCc1ccccc1", "read by": "MTT", "value": "0.1381 µM"}
{"structure": "CCCOP(=O)(OCC(=O)OCC)OC[C@H]1O[C@@H](n2cc(C)c(=O)[nH]c2=O)C[C@@H]1N=[N+]=[N-]", "value": ">100 µM"}
{"structure": "COC(=O)[C@H](C)NP(=O)(OC[C@H]1O[C@@H](n2cc(C)c(=O)[nH]c2=O)C[C@@H]1N=[N+]=[N-])OCC(Cl)(Cl)Cl", "value": ">100 µM"}
{"structure": "CC(C)c1c(Cc2ccccc2)nc(SCC(=O)c2cccs2)[nH]c1=O", "read by": "MTT", "value": "194 µM"}